Measured values from several laboratories, pooled; numbers as filed in NIAID ChemDB.

Common to all: whole-cell or culture tests; organism: Candida albicans; read-out: MIC

Neighbouring rows are from separate reports. An empty or dashed field is not shown.

CO[C@H]1[C@@H](O)[C@H](n2ccc(=O)[nH]c2=O)O[C@@H]1[C@@H](O[C@H]1OC(C(=O)O)=C[C@H](O)[C@@H]1O)C(N)=O ; strain: YU-1200 ; value: >100 µg/mL
C[C@H](n1nnnc1CCN1CCN(c2ccc(F)cc2)CC1)[C@](O)(Cn1cncn1)c1ccc(F)cc1F ; strain: V-01-191A-261 (resistant) ; value: 2 µg/mL
CCC(=O)OC1CC(C)CCC1C(C)C ; value: 14.79 µM
CCCCCCCCOc1ccc(C(=O)NC2C[C@@H](O)[C@@H](O)NC(=O)C3[C@@H](O)[C@@H](C)CN3C(=O)C(C(C)O)NC(=O)C([C@H](O)[C@@H](O)c3ccc(O)cc3)NC(=O)C3C[C@@H](O)CN3C(=O)C(C(C)O)NC2=O)cc1 ; strain: MY1028 ; value: 0.5 µg/mL
Cc1ccc(-n2c(C)n[nH]c2=O)cc1 ; strain: ATCC16231 ; value: >250 µg/mL
Cc1ccccc1C(=O)OC1CC(C)CCC1C(C)C ; value: 22.91 µM
CCCCCC(CCCCC)c1ccc(N2CCN(c3ccc(C(=O)N[C@H]4CCCNC(=O)C5C[C@H](N)CN5C(=O)C(C(C)O)NC(=O)C(CCc5ccc(O)cc5)NC(=O)C5C[C@@H](O)CN5C(=O)C(C(C)O)NC4=O)cc3)CC2)cc1 ; strain: ATCC 10231 ; value: 0.78 µg/mL
CC1C(=O)C(C)C(c2ccc(Cl)cc2)N(OCCc2nc3ccccc3o2)C1c1ccc(Cl)cc1 ; value: 50 µg/mL
CC[C@@H]([C@H](C)O)n1ncn(-c2ccc(N3CCN(c4ccc(OC[C@@H]5CO[C@@](Cn6cncn6)(c6ccc(F)cc6F)C5)cc4)CC3)cc2)c1=O ; strain: Isolate CA-7 ; value: >4 µg/mL
CN(Cc1cccc2ccsc12)/N=C\c1ccc2ccccc2c1 ; value: >64 µg/mL
CCC(C)n1ncn(-c2ccc(N3CCN(c4ccc(OC[C@H]5CO[C@](Cn6cncn6)(c6ccc(Cl)cc6Cl)O5)cc4)CC3)cc2)c1=O ; strain: Isolate CA-5 ; value: >8 µg/mL
CC1CCC(C(C)C)C(OC(=O)c2ccccc2Cl)C1 ; value: 10.72 µM
CCCCCCCCCCCCCC[C@@H](N)C(=O)N[C@H](C(=O)O)C1O[C@@H](n2ccc(=O)[nH]c2=O)[C@H](O)[C@@H]1O ; strain: H317 ; value: >320 µg/mL
CCCCCOc1ccc(-c2ccc(C(=O)N[C@H]3CCCNC(=O)C4C[C@H](N)CN4C(=O)C(C(C)O)NC(=O)C(CCc4ccc(O)cc4)NC(=O)C4C[C@@H](O)CN4C(=O)C(C(C)O)NC3=O)cc2)cc1 ; strain: ATCC 62376 ; value: 0.39 µg/mL
N=C(N)c1ccc(Oc2ccc(/C=C/c3cc4ccc(C(=N)N)cc4[nH]3)cc2)cc1 ; value: 10 µg/mL
CN(Cc1cccc2ccccc12)/N=C\c1ccccc1F ; value: >64 µg/mL
CCCCCCCCCCCCON1C(N)=NC(N)=NC1(C)C ; value: 15 µg/mL
CC1(C)O[C@H]2O[C@H](C3=NOC(CO)C3)[C@H](OCc3ccccc3)[C@H]2O1 ; value: >50 µg/mL
CCCCCC1N=C(N)N=C(N)N1OCc1cccc2ccccc12 ; value: 125 µg/mL
C[C@H](n1nnc(CCN2CCN(c3ccc(F)cc3)CC2)n1)[C@](O)(Cn1cncn1)c1ccc(F)cc1F ; strain: V-01-191A-261 (resistant) ; value: 2 µg/mL
CN1C(=O)[C@]2(CO)NC(=O)[C@@]1(Cc1ccccc1)SS[C@@]1(CO)NC(=O)[C@](Cc3ccccc3)(NC1=O)SS2 ; value: 50 µg/mL
COc1ccc(C2C(C)C(=O)C(C)C(c3ccc(OC)cc3)N2OCCc2nc3ccccc3o2)cc1 ; value: 50 µg/mL
Cc1ccc(O)c(C(=O)/C=C/c2ccc(O)cc2O)c1 ; strain: SDAU2 ; value: 50 µg/mL
Cl.N=C(N)c1ccc2oc(CCc3cc4cc(C(=N)N)ccc4o3)cc2c1 ; value: 3 µg/mL
CC1CCC(C(C)C)C(OC(=O)c2ccc(Br)cc2)C1 ; value: 14.3 µM
CN1C(=O)[C@]2(CO)NC(=O)[C@@]1(Cc1ccccc1)SS[C@@]1(CO)NC(=O)[C@@](Cc3ccccc3)(SS2)N(C)C1=O ; value: 50 µg/mL
CO[C@@H]1[C@H]2OC(C)(C)O[C@H]2O[C@@H]1C1=NOC(C)C1C(=O)O ; value: >50 µg/mL
CCC(C)CC(C)CCCCCCCCC(=O)N[C@H]1C[C@@H](O)[C@@H](OCCN)NC(=O)[C@@H]2[C@@H](O)CCN2C(=O)[C@H]([C@@H](O)CCN)NC(=O)[C@H]([C@H](O)[C@@H](O)c2ccc(O)cc2)NC(=O)[C@@H]2C[C@@H](O)CN2C(=O)[C@H]([C@H](C)O)NC1=O ; strain: ATCC 24433 ; value: ≤0.007 µg/mL
CC1CCC(C(C)C)C(OC(=O)/C=C/c2ccccc2)C1 ; value: 10.96 µM
COc1ccccc1N1CCN(CCc2nnn([C@@H](C)[C@](O)(Cn3cncn3)c3ccc(F)cc3F)n2)CC1 ; value: 8 µg/mL
CCc1n[nH]c(=O)n1CC ; strain: ATCC16231 ; value: >250 µg/mL
CCCC(O)C/C=C\C=C\C(=O)OC[C@H]1O[C@@H](O[C@@H]2[C@H](OC(=O)/C=C/C=C/CC(O)/C(C)=C/C=C/CCC(C)CC)[C@@H](O)[C@]3(OCc4cc(O)cc(O)c43)O[C@@H]2CO)[C@H](O)[C@@H](O)[C@H]1O ; strain: MY1055 ; value: 1 µg/mL
C/C(=C\c1cc2cc(C(=N)N)ccc2o1)c1ccc(C(=N)N)cc1 ; value: 60 µg/mL
CN(Cc1cccc2ccccc12)/N=C\c1ccccc1 ; value: >64 µg/mL
CC1CCC(C(C)C)C(OC(=O)/C=C/c2cccc([N+](=O)[O-])c2)C1 ; value: 4.68 µM
C[C@H](n1nnc(CCN2CCN(c3ccccc3Cl)CC2)n1)[C@](O)(Cn1cncn1)c1ccc(F)cc1F ; strain: V-01-191A-261 (resistant) ; value: 4 µg/mL
Nc1[nH]c(=O)ncc1F ; strain: B311 ; value: 0.004 µg/mL
CCCCCCCCCCON1C(N)=NC(N)=NC1CCCCC ; value: 30 µg/mL
CC1C(=O)CC(c2ccccc2)N(OCCc2nc3ccccc3o2)C1c1ccccc1 ; value: 50 µg/mL
COC(=O)C1CC([C@H]2O[C@@H]3OC(C)(C)O[C@@H]3[C@H]2OCc2ccccc2)=NO1 ; value: >50 µg/mL
CC1CCC2(CC1)N=C(N)N=C(N)N2OCCCCCCCCO ; value: 240 µg/mL
CCCCCCCCOc1ccc(N2CCN(c3ccc(C(=O)N[C@H]4CCCNC(=O)C5C[C@H](N)CN5C(=O)C(C(C)O)NC(=O)[C@@H](OCc5ccccc5)NC(=O)C5C[C@@H](O)CN5C(=O)C(C(C)O)NC4=O)cc3)CC2)cc1 ; strain: ATCC 10231 ; value: >100 µg/mL
COC1CC2CCC(C)C(O)(O2)C(=O)C(=O)N2CCCCC2C(=O)OC(C(C)CC2CCC(O)C(OC)C2)CC(=O)C(C)/C=C(\C)[C@@](O)(c2ccc(C)s2)C(OC)C(=O)C(C)CC(C)/C=C/C=C/C=C/1C ; strain: TOR1-1/TOR1 ; value: >100 µg/mL
C(/C=C/c1cc2cc(C3=NCCN3)ccc2o1)=C\c1ccc(C2=NCCN2)cc1 ; value: >60 µg/mL
CC1(C)N=C(N)N=C(N)N1OCc1cccc(Oc2cccc(CON3C(N)=NC(N)=NC3(C)C)c2)c1 ; value: 60 µg/mL
N=C(N)c1ccc(-c2cc3ccc(C(=N)N)cc3s2)cc1 ; value: 10 µg/mL
CCCCCOc1ccc(-c2ccc(-c3ccc(C(=O)N[C@H]4CCCNC(=O)C5C[C@H](N)CN5C(=O)C(CCCCN)NC(=O)C(CCc5ccc(O)cc5)NC(=O)C5C[C@@H](O)CN5C(=O)C(C(C)O)NC4=O)cc3)cc2)cc1 ; strain: ATCC 10231 ; value: 0.2 µg/mL
NC1=NC2(CCCCC2)N(OCc2ccc(Cl)c(Cl)c2)C(N)=N1 ; value: 250 µg/mL
CCCCCCCCCCCCOc1ccc(N2CCN(c3ccc(C(=O)N[C@H]4CCCNC(=O)C5C[C@H](N)CN5C(=O)C(C(C)O)NC(=O)C(CCc5ccc(O)cc5)NC(=O)C5C[C@@H](O)CN5C(=O)C(C(C)O)NC4=O)cc3)CC2)cc1 ; strain: ATCC 10231 ; value: 0.78 µg/mL
N=C(N)c1ccc(C=Cc2ccc(C(=N)N)cc2)cc1 ; value: 3 µg/mL
CCCCCCCCCCCON1C(N)=NC(N)=NC1(C)C ; value: 15 µg/mL
CCCCCOc1ccc(-c2ccc(-c3ccc(C(=O)N[C@H]4CCCNC(=O)[C@@H]5C[C@H](N)CN5C(=O)[C@H](CCCN=C(N)N)NC(=O)C(CCc5ccc(O)cc5)NC(=O)[C@@H]5C[C@@H](O)CN5C(=O)[C@H]([C@@H](C)O)NC4=O)cc3)cc2)cc1 ; strain: ATCC CCH442 ; value: 0.2 µg/mL
O=C(/C=C/c1cc(O)ccc1O)c1ccccc1 ; strain: SDAU2 ; value: 100 µg/mL
CC1CCC(C(C)C)C(OC(=O)/C=C/c2ccc([N+](=O)[O-])cc2)C1 ; value: 4.68 µM
CO[C@@H]1[C@H]2OC(C)(C)O[C@H]2O[C@@H]1C1=NOC(C(C)=O)C1 ; value: >50 µg/mL
COC(=O)C1=C[C@H](O)[C@H](O)[C@@H](O[C@@H](C(N)=O)[C@H]2O[C@@H](n3ccc(=O)[nH]c3=O)[C@H](O)[C@@H]2OC)O1 ; strain: YU-1200 ; value: >100 µg/mL
CCCCc1ccccc1N1CCN(CCc2nnnn2[C@@H](C)[C@](O)(Cn2cncn2)c2ccc(F)cc2F)CC1 ; strain: V-01-191A-261 (resistant) ; value: 0.5 µg/mL
N=C(N)c1ccc(Nc2cc3cc(C(=N)N)ccc3[nH]2)cc1 ; value: >60 µg/mL
COc1ccc(-c2ccc(C(=O)N[C@H]3CCCNC(=O)C4C[C@H](N)CN4C(=O)C(C(C)O)NC(=O)C(CCc4ccc(O)cc4)NC(=O)C4C[C@@H](O)CN4C(=O)C(C(C)O)NC3=O)cc2)cc1 ; strain: ATCC 10231 ; value: 6.25 µg/mL
CC1(C)O[C@H]2O[C@H](C3=NOC(C#N)C3)[C@H](OCc3ccccc3)[C@H]2O1 ; value: >50 µg/mL
CCC1N=C(N)N=C(N)N1OCc1cccc2ccccc12 ; value: >240 µg/mL
COc1ccc(/C=N\N(C)Cc2cccc3ccsc23)cc1 ; value: >64 µg/mL
COc1ccc(CON2C(N)=NC(N)=NC2(C)C)cc1OC ; value: >240 µg/mL
CNn1c(-c2ccccc2)nn(CC(C)C)c1=O ; strain: ATCC16231 ; value: >250 µg/mL
COc1ccccc1N1CCN(CCc2nnnn2[C@@H](C)[C@](O)(Cn2cncn2)c2ccc(F)cc2F)CC1 ; value: 4 µg/mL
O=c1[nH]nc(Cc2ccccc2)n1CCO ; strain: ATCC16231 ; value: >250 µg/mL
COC1CC2CCC(C)C(O)(O2)C(O)C(O)N2CCCCC2C(=O)OC(C(C)CC2CCC(O)C(OC)C2)CC(=O)C(C)/C=C(\C)C(O)C(OC)C(=O)C(C)CC(C)/C=C/C=C/C=C/1C ; strain: WILD TYPE ; value: 6.25 µg/mL

8 of the rows above, restated:

compound	strain	value
CCc1n[nH]c(=O)n1CC	ATCC16231	>250 µg/mL
Cl.N=C(N)c1ccc2oc(CCc3cc4cc(C(=N)N)ccc4o3)cc2c1	-	3 µg/mL
CO[C@@H]1[C@H]2OC(C)(C)O[C@H]2O[C@@H]1C1=NOC(C(C)=O)C1	-	>50 µg/mL
COc1ccccc1N1CCN(CCc2nnn([C@@H](C)[C@](O)(Cn3cncn3)c3ccc(F)cc3F)n2)CC1	-	8 µg/mL
CCCCCOc1ccc(-c2ccc(C(=O)N[C@H]3CCCNC(=O)C4C[C@H](N)CN4C(=O)C(C(C)O)NC(=O)C(CCc4ccc(O)cc4)NC(=O)C4C[C@@H](O)CN4C(=O)C(C(C)O)NC3=O)cc2)cc1	ATCC 62376	0.39 µg/mL
CC1CCC(C(C)C)C(OC(=O)c2ccc(Br)cc2)C1	-	14.3 µM
CCC(C)CC(C)CCCCCCCCC(=O)N[C@H]1C[C@@H](O)[C@@H](OCCN)NC(=O)[C@@H]2[C@@H](O)CCN2C(=O)[C@H]([C@@H](O)CCN)NC(=O)[C@H]([C@H](O)[C@@H](O)c2ccc(O)cc2)NC(=O)[C@@H]2C[C@@H](O)CN2C(=O)[C@H]([C@H](C)O)NC1=O	ATCC 24433	≤0.007 µg/mL
CO[C@H]1[C@@H](O)[C@H](n2ccc(=O)[nH]c2=O)O[C@@H]1[C@@H](O[C@H]1OC(C(=O)O)=C[C@H](O)[C@@H]1O)C(N)=O	YU-1200	>100 µg/mL